Compound potency records, mixed from different reports. Data source: NIAID ChemDB in PubChem.

All rows: tests on isolated targets

Blank or dashed fields: not listed here.

SMILES | species | read by | strain or isolate | mutations | target | endpoint | value
CCN(CC)C(=O)c1cn2ccn(Cc3cccc(Cl)c3)c(=O)c2c(O)c1=O | HIV-1 | ELISA |  |  | Integrase | IC50 | 0.01–0.1 µM
CNc1cccc(S(=O)(=O)N(C[C@@H](O)[C@H](Cc2ccccc2)NC(=O)O[C@H]2CO[C@H]3OCC[C@H]32)CC(C)(C)CCNC(=O)N(C)C)c1 | HIV-1 | fluorescence |  |  | Protease | Ki | <0.001 µM
CCCC(=O)Nc1cn2ccn(Cc3cccc(Cl)c3)c(=O)c2c(O)c1=O | HIV-1 | ELISA |  |  | Integrase | IC50 | <0.01 µM
CC(C)(CCCNC(=O)Oc1ccc(F)cc1)CN(C[C@@H](O)[C@H](Cc1ccccc1)NC(=O)O[C@H]1CO[C@H]2OCC[C@H]21)S(=O)(=O)c1ccc2c(c1)OCO2 | HIV-1 | fluorescence |  |  | Protease | Ki | <0.001 µM
Nc1ccn([C@H]2CC[C@@H](COP(=O)(O)OP(=O)(O)OP(=O)(O)OP(=O)(O)OC[C@@H]3CC[C@H](n4ccc(N)nc4=O)O3)O2)c(=O)n1 | HIV | nucleotide incorporation / radiometric |  | RT-D67N K70R T215Y K219Q | Reverse transcriptase | fold resistance | 0.08
CC(C)(CCCCNC(=O)CCC1CCCC1)CN(C[C@@H](O)[C@H](Cc1ccccc1)NC(=O)O[C@H]1CO[C@H]2OCC[C@H]21)S(=O)(=O)c1ccc2c(c1)OCO2 | HIV-1 | fluorescence |  |  | Protease | Ki | <0.001 µM
Nc1ccn([C@H]2CC[C@@H](COP(=O)(O)OP(=O)(O)OP(=O)(O)O)O2)c(=O)n1 | HIV | nucleotide incorporation / radiometric |  | RT-K65R | Reverse transcriptase | fold resistance | 5.57
CC(=O)Nc1cc(F)ccc1CN1CCn2cc(-c3nccs3)c(=O)c(O)c2C1=O | HIV-1 | ELISA |  |  | Integrase | IC50 | 0.1–1 µM
Nc1nc2c(ncn2[C@H]2CC[C@@H](COP(=O)(O)OP(=O)(O)OP(=O)(O)O)O2)c(=O)[nH]1 | HIV | nucleotide incorporation / radiometric |  | RT-D67N K70R T215Y K219Q | Reverse transcriptase | IC50 | 0.092 µM
CC(=O)Nc1cn2ccn(Cc3cccc(Cl)c3F)c(=O)c2c(O)c1=O | HIV-1 | ELISA |  |  | Integrase | IC50 | 0.01–0.1 µM
Nc1nc2c(ncn2[C@H]2CC[C@@H](COP(=O)(O)OP(=O)(O)OP(=O)(O)O)O2)c(=O)[nH]1 | HIV | nucleotide incorporation |  | RT-V60T | Reverse transcriptase | IC50 | 0.036 µM
Cc1cn([C@H]2CC[C@@H](COP(=O)(O)OP(=O)(O)OP(=O)(O)OP(=O)(O)OC[C@@H]3CC[C@H](n4cc(C)c(=O)[nH]c4=O)O3)O2)c(=O)[nH]c1=O | HIV | nucleotide incorporation / radiometric |  | RT-M41L T215Y | Reverse transcriptase | IC50 | 3.3 µM
COC(=O)NCCCCC(C)(C)CN(C[C@@H](O)[C@H](Cc1ccccc1)NC(=O)O[C@@H]1CO[C@@H]2OCC[C@@H]21)S(=O)(=O)c1ccc(N)cc1 | HIV-1 | fluorescence |  |  | Protease | Ki | <0.001 µM
COc1ccnc2[nH]cc(C(=O)C(=O)N3CCN(C(=O)c4ccccc4)C[C@H]3C)c12 | HIV-1 | ELISA | NL4-3 | GP120-D185N | gp120 | fold resistance | 1
Nc1nc2c(ncn2[C@H]2CC[C@@H](COP(=O)(O)OP(=O)(O)OP(=O)(O)OP(=O)(O)OC[C@@H]3CC[C@H](n4cnc5c(=O)[nH]c(N)nc54)O3)O2)c(=O)[nH]1 | HIV | nucleotide incorporation / radiometric |  | RT-K65R | Reverse transcriptase | fold resistance | 5.26
COc1ccc(S(=O)(=O)N(C[C@@H](O)[C@H](Cc2ccccc2)NC(=O)O[C@H]2CO[C@H]3OCC[C@H]32)CC(C)(C)CCCN(C)C)cc1 | HIV-1 | fluorescence |  |  | Protease | Ki | <0.001 µM

2 of the rows above, restated:

SMILES,species,read by,strain or isolate,mutations,target,endpoint,value
CC(=O)Nc1cn2ccn(Cc3cccc(Cl)c3F)c(=O)c2c(O)c1=O,HIV-1,ELISA,,,Integrase,IC50,0.01–0.1 µM
CC(=O)Nc1cc(F)ccc1CN1CCn2cc(-c3nccs3)c(=O)c(O)c2C1=O,HIV-1,ELISA,,,Integrase,IC50,0.1–1 µM

Conditions beyond the fields shown may differ between rows. a–b is a range or a potency band. Fold resistance has wild type as its base. ICn: concentration for n% inhibition.